Patent US20240368065A1 (HELMHOLTZ-ZENTRUM FÜR INFEKTIONSFORSCHUNG GMBH, priority 2021, published 2024)

Assay: CA concentrations in extracted mouse organs (LC-MS/MS)
Type: in vivo, C57BL/6J mice
Details: endogenous levels, compared with the other itaconate isomers

**Q.** For C/C(=C/C(=O)O)C(=O)O [citraconic acid], which Quantification in brain is on record?
**A.** the only one that could be quantified in brain, albeit at very low levels
